Experimental data from PubChem BioAssay (NCATS).
The entries are a selection whose mix differs from that of the whole data set. Results filed as inconclusive are left out. Activity calls are given as the source filed them. The call rests on the fitted dose curve; in most records, active means well fitted inhibition curve with a large enough effect; inconclusive means small, poorly fitted or top-dose-only effect; inactive means flat fitted curve, though single readings scatter.

What was measured:
Assay in all cases: qHTS profiling for inhibitors of Plasmodium falciparum proliferation (AID 504749); further: nearly all actives have a fitted effect of over 60% in size;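 on activity, negative = inhibition: 0% = DMSO vehicle and full inhibition = artemisinin control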
HB3 = conditions: P. falciparum in erythrocytes, SYBR Green DNA, 72 h; series mostly up to 28.7 µM
Method in brief: (§1)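 In a 72 h erythrocytic culture (37 C, humidified, 5% CO2) at 2.5% hematocrit and 0.3% starting parasitemia, compounds were tested; SYBR Green I in detergent lysis buffer stained parasite DNA overnight.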

ICS = conditions: P. falciparum in erythrocytes, SYBR Green DNA, 72 h; series mostly up to 28.7 µM
Method in brief: as §1

JCK = conditions: P. falciparum in erythrocytes, SYBR Green DNA, 72 h; at 28.7 µM (top of the series) unless noted
Method in brief: as §1

N140 = conditions: P. falciparum in erythrocytes, SYBR Green DNA, 72 h; at 28.7 µM (top of the series) unless noted
Method in brief: as §1

P93_24 = conditions: P. falciparum in erythrocytes, SYBR Green DNA, 72 h; series mostly up to 28.7 µM
Method in brief: as §1

P94_40 = conditions: P. falciparum in erythrocytes, SYBR Green DNA, 72 h; at 28.7 µM (top of the series) unless noted
Method in brief: as §1

PAD = conditions: P. falciparum in erythrocytes, SYBR Green DNA, 72 h; series mostly up to 28.7 µM
Method in brief: as §1

PC15 = conditions: P. falciparum in erythrocytes, SYBR Green DNA, 72 h; at 28.7 µM (top of the series) unless noted
Method in brief: as §1

PC26 = conditions: P. falciparum in erythrocytes, SYBR Green DNA, 72 h; at 28.7 µM (top of the series) unless noted
Method in brief: as §1

PC49 = conditions: P. falciparum in erythrocytes, SYBR Green DNA, 72 h; at 28.7 µM (top of the series) unless noted
Method in brief: as §1
Potency means the concentration at half of the fitted maximal effect.

In the case of `CC(C)OP(=O)(F)OC(C)C`, the Potency (HB3) is reported as “inactive”, the Potency (ICS) is reported as “inactive” and the activity, negative = inhibition (JCK) is reported as inactive: -6.78%. For the same compound, the activity, negative = inhibition (N140) was inactive: 0.351%, the Potency (P93_24) was “inactive” and the activity, negative = inhibition (P94_40) was inactive: -1.37%. For the same compound, the Potency (PAD) was “inactive”, the activity, negative = inhibition (PC15) was inactive: -4.9% and the activity, negative = inhibition (PC26) was inactive: -6.27%. The activity, negative = inhibition (PC49) was inactive: -2.49%.

For `O=[N+]([O-])c1cccc([N+](=O)[O-])c1`, the Potency (HB3) was “inactive”, the Potency (ICS) was “inactive” and the activity, negative = inhibition (JCK) was inactive: 5.67%. For the same compound, the activity, negative = inhibition (N140) was inactive: -7.92%, the Potency (P93_24) was “inactive” and the activity, negative = inhibition (P94_40) was inactive: 7%. The Potency (PAD) was “inactive”, the activity, negative = inhibition (PC15) was inactive: 9.22% and the activity, negative = inhibition (PC26) was inactive: -1.57%. The activity, negative = inhibition (PC49) was inactive: 7.94%.

For `C/C1=C2N=C(/C=C3N=C(/C(C)=C4\[N-][C@@](C)([C@H]5N=C1[C@@](C)(CCC(=O)NC[C@H](C)OP(=O)([O-])O[C@@H]1[C@H](O)[C@H](n6cnc7cc(C)c(C)cc76)O[C@@H]1CO)[C@@H]5CC(N)=O)[C@](C)(CC(N)=O)[C@H]4CCC(N)=O)[C@@](C)(CC(N)=O)[C@@H]\3CCC(N)=O)C(C)(C)[C@@H]/2CCC(N)=O.[C-]#N.[Co+3]`, the Potency (HB3) was “inactive”, the Potency (ICS) was “inactive” and the activity, negative = inhibition (JCK) was inactive: -11.5% [at 12.8 µM]. For the same compound, the activity, negative = inhibition (N140) was inactive: 4.01% [at 12.8 µM], the Potency (P93_24) was “inactive” and the activity, negative = inhibition (P94_40) was inactive: 5.76% [at 12.8 µM]. For the same compound, the Potency (PAD) was “inactive”, the activity, negative = inhibition (PC15) was inactive: 6.72% [at 12.8 µM] and the activity, negative = inhibition (PC26) was inactive: -3.59% [at 12.8 µM]. For the same compound, the activity, negative = inhibition (PC49) was inactive: 1.38% [at 12.8 µM].

With `O=[N+]([O-])OCC(CO[N+](=O)[O-])(CO[N+](=O)[O-])CO[N+](=O)[O-]` the Potency (HB3) was active: 10 µM, the Potency (ICS) was active: 3.98 µM and the activity, negative = inhibition (JCK) was inactive: -9.18%. For the same compound, the activity, negative = inhibition (N140) was inactive: -14.3%, the Potency (P93_24) was active: 10 µM and the activity, negative = inhibition (P94_40) was inactive: -26.8%. The Potency (PAD) was active: 6.31 µM.
